Test results taken from article PMC4370629, “Structural and Functional Studies of Phosphoenolpyruvate Carboxykinase from Mycobacterium tuberculosis” (PLoS ONE, 2015).

Legend:
[1] = test system: Nc1nc2c(ncn2[C@@H]2O[C@H](COP(=O)(O)OP(=O)(O)OP(=O)(O)O)[C@@H](O)[C@H]2O)c(=O)[nH]1; experiment: purified protein; details: pH 7.2
[2] = test system: Nc1nc2c(ncn2[C@@H]2O[C@H](COP(=O)(O)OP(=O)(O)O)[C@@H](O)[C@H]2O)c(=O)[nH]1; experiment: purified protein; details: pH 7.2

## (Mycobacterium tuberculosis H37Rv)
[1]
  Km: 180.8 ± 33.7 µM
[2]
  Km: 66.6 ± 8.0 µM
